Reference: publication PMC3364950, “Structure and Functional Analysis of the RNA- and Viral Phosphoprotein-Binding Domain of Respiratory Syncytial Virus M2-1 Protein”
For at least one entry, the source does not settle the construct or the ends of the probe. Where a protein sequence is shown, tags need not be part of it.

Target: T1, M2-1(58-177) core domain (UniProt P04545)
T1 sequence (looked up, limits assumed): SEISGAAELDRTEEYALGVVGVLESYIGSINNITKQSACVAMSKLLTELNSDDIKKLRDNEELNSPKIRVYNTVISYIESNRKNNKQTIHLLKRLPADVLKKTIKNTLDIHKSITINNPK
Experiment: NMR titration
Settings: NMR: 50-60 µM protein, 293 K, 14.1 T, 1:1 model; recombinant protein

Sequence	Kd
AGUUAAUUAAAA [GE_SH-pos]	13 µM
AGUUAUAUAAAA [GE_F-pos]	11 µM
